Results of unrelated studies side by side (data: NIAID ChemDB).

Shared fields: tests on isolated targets; species: Herpes simplex virus 1; target: DNA polymerase; read-out: IC50

Lines come from different laboratories, so protocols vary.

smiles,value
O=C(O)CP(=O)(O)O,7 µM
O=C(O)C(Cl)(Cl)P(=O)(O)O,>100 µM
O=C(O)P(=O)(O)Oc1ccccc1,10 µM
O=P(O)(O)C(F)(Br)P(=O)(O)O,>100 µM
CCOP(=O)(OCC)C(=O)OC,>35 µM
O=P(O)(O)C(Br)(Br)P(=O)(O)O,>100 µM
O=C(P(=O)(O)O)P(=O)(O)O,10 µM
O=P(O)(O)C(Cl)P(=O)(O)O,>100 µM
COC(=O)[C@H]1[C@H](O)[C@@H](C)[C@@H](O)[C@](C)(O)/C=C(\C)C2=C3C(=C(C)C(=O)c4c(O)c(c(C)c(OC(C)=O)c43)NC(=O)/C(C)=C/C=C\[C@@H](C)C(O)[C@@H](C)[C@H]1O)OCO2,220 µM
CCCOP(=O)(O)CC(=O)O,200 µg/mL
O=C(Oc1ccccc1)P(=O)(O)Oc1ccccc1,>35 µM
CCCOC(=O)CP(=O)(O)O,0.16 µg/mL
O=P(O)(O)C(Cl)(Cl)P(=O)(O)O,>100 µM
CC(C(=O)O)P(=O)(O)O,15 µM
O=C(CP(=O)(O)O)OCc1ccccc1,40 µg/mL

The last 2 rows once more:

smiles | value
CC(C(=O)O)P(=O)(O)O | 15 µM
O=C(CP(=O)(O)O)OCc1ccccc1 | 40 µg/mL

ICn: concentration for n% inhibition.